Taken from: PubChem BioAssay AID1224833 (University of Georgia, 2016)
Here is a random part of about 12,000 reagents tested. About 5,600 of them (46%) count as active. 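Active calls cover z-scores past 1 in both directions, so they include lowered as well as raised rotavirus replication.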 Unmarked entries are inactive.

- Test: 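Host factors restraining rotavirus as candidate antiviral genes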 (primary screen)
- System: monkey MA104 kidney cells
- Reagent: siRNA pool against human genes, 50 nM
- Timing: 48 h knock-down before infection; read 24 h after infection
- Challenge: infection with rotavirus strain RV3 two days after transfection; infectious dose for this stage not given
- Measured: 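Rotavirus antigen per well by fluorescent immunoassay, normalised to non-targeting control wells on each plate and given as a standard z-score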
- Reading the numbers: z-score vs non-targeting control: higher = more rotavirus replication than with non-targeting control
- Rule for the call: In these data the active calls have z-score vs non-targeting control at about -1 or lower, or at about 1 or higher
- Calls: active = z-score beyond 1 either way; inactive = z-score within 1 of zero

Target gene,z-score vs non-targeting control
STAP1 (GeneID 26228),2.23 (active)
FAM221A (GeneID 340277),0.892
MRPL57 (GeneID 78988),-0.966
ZNF800 (GeneID 168850),1.45 (active)
IQCC (GeneID 55721),-1.68 (active)
ZNF607 (GeneID 84775),-1.23 (active)
LRRIQ1 (GeneID 84125),-0.147
BAG3 (GeneID 9531),-2.61 (active)
TIMM29 (GeneID 90580),1.51 (active)
AKR1C1 (GeneID 1645),-1.22 (active)
DLX6 (GeneID 1750),-0.719
HECA (GeneID 51696),-0.254
MORF4L1 (GeneID 10933),0.0971
LSM8 (GeneID 51691),0.251
DAPP1 (GeneID 27071),-1.77 (active)
MRPL41 (GeneID 64975),1.22 (active)
F10 (GeneID 2159),1.41 (active)
PNPLA2 (GeneID 57104),0.356
LSM12 (GeneID 124801),-0.979
GAN (GeneID 8139),-0.727
ABCC12 (GeneID 94160),0.653
AGFG1 (GeneID 3267),-1.58 (active)
NICN1 (GeneID 84276),-0.914
SLC60A2 (GeneID 91749),2.11 (active)
FANCE (GeneID 2178),-1.52 (active)
GREM2 (GeneID 64388),-0.659
POM121L2 (GeneID 94026),-0.69
IDNK (GeneID 414328),0.79
GORAB (GeneID 92344),-0.592
MTMR10 (GeneID 54893),-0.785
KRT32 (GeneID 3882),-1.38 (active)
ALAS2 (GeneID 212),0.504
HRK (GeneID 8739),0.813
WNT10B (GeneID 7480),-0.896
AKR7A3 (GeneID 22977),-1.43 (active)
ITGA11 (GeneID 22801),-0.943
ANGPTL3 (GeneID 27329),0.688
KIF9 (GeneID 64147),-0.354
ACTR1B (GeneID 10120),-0.113
TTR (GeneID 7276),-2.42 (active)
MPPE1 (GeneID 65258),0.783
TKFC (GeneID 26007),-0.546
AJAP1 (GeneID 55966),-0.869
RUBCNL (GeneID 80183),0.747
VAPA (GeneID 9218),-1.25 (active)
CYP2D6 (GeneID 1565),-1.42 (active)
HAPLN2 (GeneID 60484),0.527
YIPF1 (GeneID 54432),-0.848
NDE1 (GeneID 54820),-0.953

An excerpt of the results above:
Target gene,z-score vs non-targeting control
F10 (GeneID 2159),1.41 (active)
PNPLA2 (GeneID 57104),0.356
LSM12 (GeneID 124801),-0.979
GAN (GeneID 8139),-0.727
ABCC12 (GeneID 94160),0.653
AGFG1 (GeneID 3267),-1.58 (active)
NICN1 (GeneID 84276),-0.914
SLC60A2 (GeneID 91749),2.11 (active)
FANCE (GeneID 2178),-1.52 (active)
GREM2 (GeneID 64388),-0.659
POM121L2 (GeneID 94026),-0.69
IDNK (GeneID 414328),0.79

Continued.
Target gene,z-score vs non-targeting control
FPGT (GeneID 8790),0.933
NDUFB8 (GeneID 4714),-0.222
SYF2 (GeneID 25949),0.179
FAM204A (GeneID 63877),-2.99 (active)
GNG4 (GeneID 2786),-1.29 (active)
OR2J2 (GeneID 26707),-0.185
IDH3B (GeneID 3420),-0.645
HCST (GeneID 10870),0.642
PALMD (GeneID 54873),-0.768
PNMA3 (GeneID 29944),-1.71 (active)
H2BC1 (GeneID 255626),-1.83 (active)
ALOX12B (GeneID 242),1.22 (active)
NUMB (GeneID 8650),0.357
SKIC2 (GeneID 6499),-0.864
MGAT3 (GeneID 4248),0.54
GPX8 (GeneID 493869),2.58 (active)
CBX3 (GeneID 11335),0.758
ADD2 (GeneID 119),0.414
COX7B (GeneID 1349),0.691
STX16 (GeneID 8675),-1.31 (active)
LCE2C (GeneID 353140),0.193
PSAP (GeneID 5660),-0.086
LMBRD2 (GeneID 92255),-0.6
H2BC21 (GeneID 8349),-0.616
AMOT (GeneID 154796),-1.08 (active)
SERTAD2 (GeneID 9792),-0.882
VANGL1 (GeneID 81839),-0.0467
DMAP1 (GeneID 55929),-0.508
IL12B (GeneID 3593),-0.704
TAF13 (GeneID 6884),0.624
SPON1 (GeneID 10418),0.242
CCNL2 (GeneID 81669),-0.0503
WNT6 (GeneID 7475),-0.289
MYO1F (GeneID 4542),0.305
UTP14C (GeneID 9724),-0.583
ANKRD13A (GeneID 88455),0.147
TSPYL5 (GeneID 85453),1.02 (active)
FAABTP (GeneID 55266),0.145
REM1 (GeneID 28954),0.987
INHA (GeneID 3623),-0.743
LEMD2 (GeneID 221496),0.111
SLC35F3 (GeneID 148641),-1.46 (active)
ENAM (GeneID 10117),-0.732
DMRTA1 (GeneID 63951),0.708
GNPAT (GeneID 8443),-1.47 (active)
NSL1 (GeneID 25936),-1.39 (active)
TOR1AIP1 (GeneID 26092),-0.459
KRT85 (GeneID 3891),0.173
CFAP68 (GeneID 64776),-0.534
MET (GeneID 4233),3.14 (active)
ARL2 (GeneID 402),-0.389
PARVG (GeneID 64098),-0.798
RALA (GeneID 5898),-1.65 (active)
FGFBP1 (GeneID 9982),1.58 (active)
NMRK1 (GeneID 54981),0.151
SPPL2B (GeneID 56928),0.98
HIC2 (GeneID 23119),1.21 (active)
ACOX1 (GeneID 51),0.58
CES2 (GeneID 8824),-1.78 (active)
PRY (GeneID 9081),-1.17 (active)
INMT (GeneID 11185),1.34 (active)
